A mixed list of measured activities; the numbers were collected in NIAID ChemDB.

Shared fields: enzyme or target tests; species: HIV-1; target: Reverse transcriptase

ICn is the concentration giving n% inhibition. Two numbers with a dash give a range or band. Blank or dashed fields: not listed here. Lines come from different laboratories, so protocols vary.

smiles | strain | mutations | method | measure | setting | value
Cc1cc(-c2ccccc2)nc(N2C(=O)CSC2c2c(F)cccc2F)n1 | - | - | absorbance | IC50 | - | 10–100 µg/mL
C=Cc1cc(N(C)C)nc(SCc2ccc(OC)cc2)n1 | - | RT-Y181I | nucleotide incorporation / radiometric | Ki | - | >400 µM
CCC(C)Oc1nc(Cc2ccccc2)cc(=O)[nH]1 | - | - | nucleotide incorporation | IC50 | - | 4.2 µM
Nc1cc(OC[C@H]2CC[C@@H](COP(=O)([O-])OP(=O)([O-])OP(=O)([O-])O)O2)nc(N)n1 | - | - | nucleotide incorporation / radiometric | IC50 | Mn2+ | >500 µM
O=c1cc(-c2ccc(O)cc2)oc2c([C@@H]3O[C@H](CO)[C@@H](O)[C@H](O)[C@H]3O)c(O)cc(O)c12 | - | - | nucleotide incorporation / radiometric | IC50 | - | >200 µg/mL
CN1C(=O)[C@]2(C[C@@H]2c2ccc(Cl)cc2)c2ccccc21 | - | - | RT activity / nucleotide incorporation | IC50 | - | ≥97.28 µg/mL
CCc1cc(=O)c2c(O)c3c(O)cc(O)c4c5c(O)cc(O)c6c(O)c7c(=O)cc(CC)c8c1c2c(c34)c(c65)c78 | - | - | RT activity | IC50 | - | 89.34 µg/mL
Nc1cc(OCCOCP(=O)(O)OP(=O)(O)OP(=O)(O)O)nc(N)n1 | - | - | nucleotide incorporation / radiometric | IC50 | Mg2+ | >100 µM
O=C1CSC(c2c(Cl)cccc2Cl)N1c1nc(-c2ccccc2)cc(C(F)(F)F)n1 | - | - | absorbance | IC50 | - | >100 µg/mL
CC1=C[C@H](O)[C@@]2(C)C(C3CCC4[C@@]5(C)CC[C@H](O)C(C)(C)C5CC[C@@]4(C)[C@]3(C)C[C@@H]2O)[C@@H]1C | - | - | nucleotide incorporation | IC50 | - | >45 µM
O=C1CSC(c2c(F)cccc2Cl)N1c1nc(-c2ccccc2)cc(-c2ccccc2)n1 | - | - | absorbance | IC50 | - | <10 µg/mL
Cc1nnc2c3ccccc3c(N3CCc4cccnc4C3)nn12 | KER2008 | - | RT activity / fluorescence | IC50 | - | 1.46 µM
NCCC1C=Nc2ccccc21 | - | - | - | IC50 | - | 94.9 µM
Nc1ncnc2c1ncn2C1OC(CO)CC1OP(=O)(O)OCC1CC(OP(=O)(O)OCC2OC(n3cnc4c(N)ncnc43)C(O)C2O)C(n2cnc3c(N)ncnc32)O1 | IIIB | - | - | IC50 | - | >10 µM
c1ccc2c(c1)CCN(c1nn3c(-c4cscn4)nnc3c3ccccc13)C2 | IIIB | - | RT activity / fluorescence | IC50 | - | 1.44 µM
Cn1cc(C(=O)O)c(=O)c2cc(N)c(N3CCN(c4ccccn4)CC3)cc21 | - | - | - | IC50 | - | 800 µM
Nc1nc2c(ncn2[C@H]2C=C[C@@H](COP(=O)(O)OP(=O)(O)OP(=O)(O)O)C2)c(=O)[nH]1 | - | - | RT activity / binding | Ki | - | 1.7 µM
Nc1ncnc2c1ncn2C1OC(COP(=O)(O)OC2CC(COP(=O)(O)OC3CC(CO)OC3n3cnc4c(N)ncnc43)OC2n2cnc3c(N)ncnc32)CC1O | IIIB | - | - | IC50 | - | >10 µM
CC(C)(O)CCc1c(O[C@@H]2O[C@H](CO)[C@@H](O)[C@H](O)[C@H]2O)cc2oc(-c3ccc(O)c(O)c3)c(O)c(=O)c2c1O | - | - | nucleotide incorporation / radiometric | IC50 | - | >200 µg/mL
O=C1CSC(c2c(Cl)cccc2Cl)N1c1nc(-c2ccccc2)cc(-c2ccccc2)n1 | - | - | absorbance | IC50 | - | ~10 µg/mL
Nc1ncnc2c1ncn2[C@@H]1O[C@H](COP(=O)([O-])O[C@@H]2C[C@@H](COP(=O)([O-])O[C@@H]3C[C@@H](COP(=O)([O-])O)O[C@H]3n3cnc4c(N)ncnc43)O[C@H]2n2cnc3c(N)ncnc32)C[C@H]1O | IIIB | - | - | IC50 | - | >10 µM
CSCSc1nc(Cc2ccccc2)c(C(C)C)c(=O)[nH]1 | - | - | scintillation proximity | IC50 | - | 5.6 µM
C=Cc1cc(N(CCC)CCC)nc(S(C)(=O)=O)n1 | - | RT-Y181I | nucleotide incorporation / radiometric | Ki | - | >400 µM
CC(C)c1nnc2c3ccccc3c(N3CCc4ccc(NS(C)(=O)=O)cc4C3)nn12 | IIIB | - | RT activity / fluorescence | IC50 | - | 0.81 µM
C=C(CO)[C@@H]1CC[C@]2(C)CC[C@]3(C)[C@H](CC[C@@H]4[C@@]5(C)CC[C@H](O)C(C)(C)[C@@H]5CC[C@]43C)[C@@H]12 | - | - | nucleotide incorporation | IC50 | - | 4.5 µM
Cc1cc(-c2ccccc2)nc(N2C(=O)CSC2c2c(F)cccc2Cl)n1 | - | - | absorbance | IC50 | - | 10–100 µg/mL
CN1C(=O)[C@]2(C[C@@H]2c2ccccc2)c2cc(Cl)ccc21 | - | - | RT activity / nucleotide incorporation | IC50 | - | 110 µg/mL
Cn1c(Nc2cccc(-c3ccc(C#N)cc3)c2)cc(=O)n(O)c1=O | - | - | nucleotide incorporation / radiometric | IC50 | - | 10 µM
O=C1CSC(c2c(F)cccc2Cl)N1c1nc(-c2ccccc2)cc(C(F)(F)F)n1 | - | - | absorbance | IC50 | - | >100 µg/mL
Nc1ncnc2c1ncn2[C@@H]1O[C@H](COP(=O)(O)O[C@@H]2[C@H](O)[C@@H](COP(=O)(O)O[C@@H]3[C@H](O)[C@@H](CO)O[C@H]3n3cnc4c(N)ncnc43)O[C@H]2n2cnc3c(N)ncnc32)[C@@H](O)[C@H]1O | IIIB | - | - | IC50 | - | >10 µM
CCCOCCCNC(=S)Nc1cc(OC)c(Cl)cc1OC | - | - | - | IC50 | - | 1.1 µM
COc1cc2c(cc1OC)CN(c1nn3c(C)nnc3c3ccccc13)CC2 | 98US_MSC5016 | - | RT activity / fluorescence | IC50 | - | 0.44 µM
O=C1CSC(c2c(F)cccc2F)N1c1nc(-c2ccccc2)cc(C(F)(F)F)n1 | - | - | absorbance | IC50 | - | >100 µg/mL
CC(C)(O)CCc1c(O[C@@H]2O[C@H](CO)[C@@H](O)[C@H](O)[C@H]2O)cc2c(c1O)C(=O)[C@H](O)[C@@H](c1ccc(O)c(O)c1)O2 | - | - | nucleotide incorporation / radiometric | IC50 | - | >200 µg/mL
CCc1c(Cc2ccccc2)nc(SCSC)[nH]c1=O | - | - | scintillation proximity | Ki | - | 2 µM
Cc1cc(C(F)(F)F)nc(N2C(=O)CSC2c2c(Cl)cccc2Cl)n1 | - | - | absorbance | IC50 | - | >100 µg/mL
COc1cccc(-c2ccc(Oc3cc(=O)n(O)c(=O)n3C)cc2)c1 | - | - | nucleotide incorporation / radiometric | IC50 | - | >25 µM
Nc1ncnc2c1ncn2[C@@H]1O[C@H](COP(=O)([O-])O)[C@@H](O)[C@H]1OP(=O)([O-])OC[C@H]1O[C@@H](n2cnc3c(N)ncnc32)[C@H](OP(=O)([O-])OC[C@@H]2C[C@@H](O)[C@H](n3cnc4c(N)ncnc43)O2)[C@@H]1O | IIIB | - | - | IC50 | - | >10 µM
N#C/C=C/c1cc(Br)cc(Oc2ccc(Cl)cc2OCCn2ccc(=O)[nH]c2=O)c1 | - | - | RT activity | IC50 | - | 0.03 µM
Nc1nc2c(ncn2[C@@H]2O[C@H](COP(=O)(O)OP(=O)(O)OP(=O)(O)O)[C@H]2CO)c(=O)[nH]1 | - | - | - | Ki | - | 0.9 µM
Cc1cn([C@H]2C[C@H](F)C(COP(=O)([O-])OP(=O)([O-])OC[C@H]3O[C@@H](n4cc(C)c(=O)[nH]c4=S)C[C@@H]3F)O2)c(=S)[nH]c1=O | - | - | RT activity / ELISA | IC50 | - | 0.2 µM
O=C(OCC1OC(OC2Cc3c(O)cc(O)cc3OC2c2cc(O)c(O)c(O)c2)C(O)C(O)C1O)c1cc(O)c(O)c(O)c1 | - | - | - | IC50 | - | 10.9 µM
CC1(C)CC[C@]2(C(=O)O)CC[C@]3(C)C(=CC[C@@H]4[C@@]5(C)CC[C@H](O)C(C)(C)[C@@H]5CC[C@]43C)[C@@H]2C1 | - | - | nucleotide incorporation | IC50 | - | 3.1 µM
Nc1ncnc2c1ncn2[C@@H]1O[C@H](COP(=O)([O-])O[C@@H]2C[C@@H](COP(=O)([O-])O[C@@H]3C[C@@H](COP(=O)([O-])O)O[C@H]3n3cnc4c(N)ncnc43)O[C@H]2n2cnc3c(N)ncnc32)[C@@H](O)[C@H]1O | IIIB | - | - | IC50 | - | >10 µM